Compound potency records, mixed from different reports. Data source: NIAID ChemDB in PubChem.

Shared fields: tests in culture; organism: Human cytomegalovirus; cell line: MRC-5; endpoint: EC50

Blank or dashed fields: not listed here. ECn: concentration that inhibits the pathogen or its effect by n%. Conditions beyond the fields shown may differ between rows.

compound,strain,read by,result
OC[C@H]1OC[C@@H](n2c(Br)nc3cc(Cl)c(Cl)cc32)[C@@H]1O,AD169,hybridisation,25 µM
Nc1ncnc2c1ncn2[C@H]1C[C@@H](O)[C@H](CO)O1,AD169,cytopathic effect,>1000 µM
Nc1nc2c(ncn2CCC(CO)CO)c(=O)[nH]1,AD169,plaque count,45 µg/mL
CCCCN1C(=O)c2ccccc2N(CCCc2ccccc2)S1(=O)=O,AD169,plaque count,2.3 µM
OC[C@H]1O[C@@H](n2c(Cl)nc3cc(Cl)c(Cl)cc32)[C@H](O)[C@@H]1O,1038RB 8-3-3 (plaque-purified 1038RB strain),plaque count,>50 µM
CCc1cn([C@@H]2O[C@H](CO)[C@@H](O)[C@@H]2O)c(=S)nc1N,T-137,plaque count,>264.9 µM
CC(C)CN1C(=O)c2ccccc2N(Cc2ccc(Cl)c(Cl)c2)S1(=O)=O,AD169,plaque count,14.5 µM
Nc1ccn(C[C@H]2COP(=O)(O)CO2)c(=O)n1,Towne (ganciclovir- foscarnet-susceptible),plaque count,0.66 µM
CCc1cn([C@@H]2O[C@H](CO)[C@@H](O)[C@@H]2O)c(=S)[nH]c1=O,T-137,plaque count,>213 µM
C#CCN1C(=O)c2ccccc2N(Cc2ccc(Cl)cc2)S1(=O)=O,AD169,plaque count,6.9 µM
[O-][n+]1onc2ncnc(N3CC[N+]4(CC3)CC[N+]3(CCN(c5ncnc6no[n+]([O-])c56)CC3)CC4)c21,,plaque count,12.3 µM
CCCCCCCCCCCCCCCCOCCCOP(=O)(O)CO[C@H](CO)Cn1ccc(N)nc1=O,AD169,plaque count,0.0009 µM
Nc1ccn(C[C@@H](CO)OCP(=O)(O)O)c(=O)n1.O=C(O)P(=O)(O)O,PAAR,plaque count,1.24 µM
OC[C@@H]1C[C@H](n2c(Br)nc3cc(Cl)c(Cl)cc32)CO1,AD169,hybridisation,14 µM
CC(C)COC1=NS(=O)(=O)N(Cc2ccc(Cl)c(Cl)c2)c2ccccc21,AD169,plaque count,9.6 µM
CCCCCCCCCCCCCCCCCCOCCOP(=O)(O)CO[C@H](CO)Cn1ccc(N)nc1=O,C8914-6 drug-resistant mutant,plaque count,0.001 µM
COCCOCn1cc(C(N)=S)c2c(N)ncnc21,TOWNE,ELISA,1.9 µM
CC(O)c1cn([C@@H]2O[C@H](CO)[C@@H](O)[C@@H]2O)c(=S)nc1N,AD169,plaque count,>244.8 µM
Nc1nc2c(ncn2[C@@H]2C[C@H](CO)[C@H]2CO)c(=O)[nH]1.O=C(O)P(=O)(O)O,PAAR,plaque count,0.91 µM
Nc1ccn([C@H]2C[C@@H](O)[C@H](CO)O2)c(=O)n1,AD169,cytopathic effect,>10 µM
Nc1nc2c(ncn2COC(CO)OCP(=O)(O)O)c(=O)[nH]1,,cytopathic effect,0.9 µg/mL
O=C1c2sc3ccccc3c2N(Cc2ccc(Cl)cc2)S(=O)(=O)N1Cc1ccc(Cl)cc1,AD169,plaque count,3.9 µM
COc1ccc(Cn2cc(C(N)=S)c3c(N)ncnc32)cc1,TOWNE,ELISA,0.4 µM
O=C1c2sccc2N(Cc2ccc(Cl)cc2)S(=O)(=O)N1Cc1ccccc1,AD169,plaque count,8.3 µM
Nc1nc2c(ncn2COC(CO)CO)c(=O)[nH]1,DAVID,plaque count,7 µM
Nc1nc(=S)n([C@@H]2O[C@H](CO)[C@@H](O)[C@@H]2O)cc1/C=C/Br,AD169,plaque count,>213 µM
Cc1cn([C@@H]2O[C@@H](CO)[C@H](O)[C@H]2O)c(=O)[nH]c1=O,AD169,cytopathic effect,>1000 µM
CC(C)Nc1nc2cc(Cl)c(Cl)cc2n1[C@H]1O[C@@H](CO)[C@H](O)[C@@H]1O,AD169,hybridisation,0.05 µM
Cc1cn([C@H]2C[C@H](O)[C@@H](CO)O2)c(=S)nc1N,AD169,plaque count,>277.4 µM
Nc1nc2c(ncn2COC(CO)CO)c(=O)[nH]1,RC11,plaque count,12.75 µM
O=c1[nH]c(=S)n([C@@H]2O[C@H](CO)[C@@H](O)[C@@H]2O)cc1CCO,AD169,plaque count,>213 µM
O=C1c2sc3ccccc3c2N(Cc2ccc(Cl)cc2)S(=O)(=O)N1Cc1ccccc1,AD169,plaque count,12.7 µM
C=Cc1cn([C@@H]2O[C@H](CO)[C@@H](O)[C@@H]2O)c(=S)[nH]c1=O,AD169,plaque count,>213 µM
Nc1nc2c(ncn2COC(CO)CO)c(=O)[nH]1,C9213,hybridisation,0.4 µM
Nc1ccn(C[C@H]2COP(=O)(O)CO2)c(=O)n1.O=C(O)P(=O)(O)O,Towne (ganciclovir- foscarnet-susceptible),plaque count,1.01 µM
CCOP(=O)([O-])CCCOCn1cnc2c(=O)[nH]c(N)nc21,AD169,plaque count,16 µg/mL
CCCCN1C(=O)c2ccccc2N(Cc2ccccc2)S1(=O)=O,AD169,plaque count,7.6 µM
CC(C)Nc1nc2cc(Cl)c(Cl)cc2n1[C@@H]1CO[C@H](C)[C@H]1O,AD169,hybridisation,10 µM
Nc1nc2c(ncn2COCCCP(=O)([O-])O)c(=O)[nH]1,AD169,plaque count,11.9 µg/mL
Cc1cn([C@@H]2O[C@H](CO)[C@@H](O)[C@@H]2O)c(=S)nc1N,93-1R,plaque count,>264.9 µM